Data on 1 substance can be found in paper PMC5869396, “Structural Basis for the Specific Neutralization of Stx2a with a Camelid Single Domain Antibody Fragment” (2018).

For the assay, the target named is biotinylated rStx2aB (rStx2aB with human IgA1 hinge and biotin acceptor domain) (E. coli O157:H7 strain EDL933).

By stoichiometry N is commonly meant a count of units in the complex or per binding partner. For “biotinylated rStx2aB (rStx2aB with human IgA1 hinge and biotin acceptor domain)”, the stoichiometry N turned out to be 5.
